# The entries are a selection whose mix differs from that of the whole data set. Inconclusive results are not listed. Where a call stands in place of a potency, no number is given. The source made the active and inactive calls. The call rests on the fitted dose curve; in most records, active means well fitted inhibition curve with a large enough effect; inconclusive means small, poorly fitted or top-dose-only effect, or effect the other way; inactive means flat fitted curve, though single readings scatter.
# Protein sequences, listed by entry. Tags and fused reporters are not part of them.
# UniProt A8B2U2, whole entry: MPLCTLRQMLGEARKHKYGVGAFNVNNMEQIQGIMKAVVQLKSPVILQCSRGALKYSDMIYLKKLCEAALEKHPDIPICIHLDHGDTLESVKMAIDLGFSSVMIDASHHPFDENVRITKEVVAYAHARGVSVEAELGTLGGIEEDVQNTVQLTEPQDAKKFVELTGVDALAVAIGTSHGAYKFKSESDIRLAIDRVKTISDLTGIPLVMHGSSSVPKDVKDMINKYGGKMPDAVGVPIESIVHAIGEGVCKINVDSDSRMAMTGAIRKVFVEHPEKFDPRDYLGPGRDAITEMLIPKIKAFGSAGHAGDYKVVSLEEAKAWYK
# Target: Fructose-bisphosphate aldolase (Giardia intestinalis (strain ATCC 50803 / WB clone C6)) (UniProt A8B2U2)
# Test: qHTS Assay for Inhibitors of Fructose-1,6-bisphosphate Aldolase from Giardia Lamblia; further: nearly all actives have a fitted effect of over 55% in size
# Details: purified Giardia FBPA; series mostly up to 59.6 µM
# Potency means the concentration at half of the fitted maximal effect.
row,SMILES,Potency
1,CSc1ccccc1C(=O)NCC1(N2CCCCC2)CCCCC1,inactive
2,COc1ccc(C(=O)NCC2(N3CCCCC3)CCCCC2)c(OC)c1OC,inactive
3,CC(C)(C)OC(=O)N1CCC(N(C(=O)c2ccccc2)c2ccc(F)cc2)CC1,inactive
4,COc1ccc(C(=O)NCC2(N3CCCCC3)CCCCC2)cc1,inactive
5,O=C(NCC1(N2CCCCC2)CCCCC1)c1ccc(=O)[nH]c1,inactive
6,O=C(OC1CN2CCC1CC2)C1c2ccccc2Oc2ccccc21 (stereo not given),inactive
7,N#CC1(Nc2ccccc2)CCN(Cc2ccccc2)CC1,inactive
8,CCOC(=O)N1CCC(Nc2ccc(OC)cc2)CC1,inactive
9,Cc1cc(C)cc(N(C(=O)c2ccccc2)C2CCN(C(=O)OC(C)(C)C)CC2)c1,inactive
10,O=C(NCC1(N2CCOCC2)CCCCC1)c1cc2ccccc2o1,inactive
11,CCOC(=O)N1CCC(Nc2ccc(F)cc2)CC1,inactive
12,COc1ccc(NC2CCN(CCc3ccccc3)CC2)c(OC)c1,inactive
13,O=C(NCC1(N2CCCCC2)CCCCC1)c1ccc(F)cc1,inactive
14,COc1cc(C(=O)NCC2(N(C)C)CCCCC2)ccc1OC(F)F,inactive
15,N#CC1(Nc2ccccc2)CCN(CCc2ccccc2)CC1,inactive
16,O=C(NCC1(N2CCCCC2)CCCCC1)c1cccc([N+](=O)[O-])c1,inactive
17,O=C(NCC1(N2CCCCC2)CCCCC1)c1ccc(OC(F)F)cc1,inactive
18,O=C(NCC1(N2CCOCC2)CCCCC1)c1cc(=O)[nH]c2ccccc12,inactive
19,COc1cc(C(=O)NCC2(N3CCCCC3)CCCCC2)ccc1OC(F)F,inactive
20,COc1ccc(NC2CCN(C(=O)OC(C)(C)C)CC2)cc1,inactive
21,CN1CCN(CCOC(=O)C(O)(c2ccccc2)c2ccccc2)CC1,inactive
22,O=C(NCC1(N2CCCCC2)CCCCC1)c1cccc(C(F)(F)F)c1,inactive
23,COc1cc(OC)c(C(=O)NCC2(N(C)C)CCCCC2)cc1OC,inactive
24,CC(C)c1ccc(NC2CCN(C(=O)OC(C)(C)C)CC2)cc1,inactive
25,CN(C)c1cccc(C(=O)NCC2(N3CCCCC3)CCCCC2)c1,inactive

row,SMILES,Potency
1,O=[N+]([O-])c1cc([N+](=O)[O-])c(OC2CCCCC2O)c([N+](=O)[O-])c1 (stereo not given),inactive
2,COc1ccc(CN(CCCl)CCCl)cc1Cl,inactive
3,CCCOc1ccc(C(=O)NCC2(N(C)C)CCCCC2)cc1OC,inactive
4,O=C(OC1CN2CCC1CC2)c1ccc([N+](=O)[O-])cc1 (stereo not given),inactive
5,COc1ccc(C(=O)NCC2(N3CCOCC3)CCCCC2)cc1OC,inactive
6,O=C(O)c1cccc(Nc2c([N+](=O)[O-])cc([N+](=O)[O-])cc2[N+](=O)[O-])c1,inactive
7,O=C(OC1CN2CCC1CC2)C1c2ccccc2C=Cc2ccccc21 (stereo not given),inactive
8,N/C(=N\O)c1c(N)no[n+]1[O-],inactive
9,CCOC(=O)C(CC)C1=NC(C)(C)Cc2ccccc21.O=[N+]([O-])c1cc([N+](=O)[O-])c(O)c([N+](=O)[O-])c1 (stereo not given),inactive
10,N#Cc1ccc(C(=O)NCC2(N3CCCCC3)CCCCC2)cc1,inactive
11,CC(C)(C)OC(=O)N1CCC(N(C(=O)c2ccccc2)c2ccc(Cl)cc2)CC1,inactive
12,CN(C)C1(CNC(=O)c2cccc(C#N)c2)CCCCC1,inactive
13,CCCN1CCC(Nc2cc(OC)cc(OC)c2)CC1,active: 28.2 µM
14,c1ccc(CN2CCC(Nc3ccccc3)CC2)cc1,inactive
15,CN(C)c1ccc(C(=O)NCC2(N3CCCCC3)CCCCC2)cc1,inactive
16,CCN1CCC(Nc2cccc(F)c2)CC1,inactive
17,O=C(O)C1(Nc2ccccc2)CCN(Cc2ccccc2)CC1,inactive
18,CC(C)(C)OC(=O)N1CCC(Nc2ccccc2)CC1,inactive
19,CCCOc1ccc(C(=O)NCC2(N(C)C)CCCCC2)cc1,inactive
20,CCOc1ncccc1C(=O)NCC1(N2CCOCC2)CCCCC1,inactive
21,CN1CCC(Nc2ccc(Cl)cc2)CC1,active: 20 µM
22,CCCOc1ccc(C)cc1CN(CCCl)CCCl,inactive
23,COc1cccc(C(=O)N(c2cc(C)cc(C)c2)C2CCN(C(=O)OC(C)(C)C)CC2)c1,inactive
24,COc1cc(OC)cc(C(=O)NCC2(N3CCOCC3)CCCCC2)c1,inactive
25,CCC(CO)(C(=O)OC1CN2CCC1CC2)c1ccccc1 (stereo not given),inactive

# Reference: PubChem BioAssay AID2451 (National Center for Advancing Translational Sciences (NCATS), 2010)
